Assay: general procedure: Fmoc solid-phase peptide synthesis; Rink amide resin
Details: whole synthesis

Substance | isolated yield | final HPLC purity
GSAFAPAA-OH | 43% | > 98%
NIAAYPH-OH | 41% | >98%
RGTAPGGY-OH | 25% | >98%
GKPGRGDL-OH | 27% | >98%
GDLWILRG-OH | 34% | >98%
NAYKWPNI-OH | 30% | >98%
GYGYTSNAY-OH | 38% | >98%
AAPAFASG-OH | 31% | >98%

— article PMC6629785 (Frontiers in Chemistry, 2019)
